Results of unrelated studies side by side (data: NIAID ChemDB).

Shared fields: tests in culture; organism: Mycobacterium avium complex; endpoint: MIC

Lines come from different laboratories, so protocols vary.

{"smiles": "CO[C@H]1/C=C/O[C@@]2(C)Oc3c(C)c(O)c4c(O)c(c(/C=N/N5CCN(C/C=C/c6ccccc6)CC5)c(O)c4c3C2=O)NC(=O)/C(C)=C\\C=C\\[C@H](C)[C@H](O)[C@@H](C)[C@@H](O)[C@@H](C)[C@H](OC(C)=O)[C@@H]1C", "strain or isolate": "CH5", "value": "0.06 µg/mL"}
{"smiles": "NC[C@H]1O[C@H](O[C@H]2[C@H](O)[C@@H](O[C@H]3O[C@H](CO)[C@@H](O)[C@H](N)[C@H]3O)[C@H](N)C[C@@H]2N)[C@H](O)[C@@H](O)[C@@H]1O", "strain or isolate": "N-978 (HIV+)", "value": "4 µg/mL"}
{"smiles": "CO[C@H]1/C=C/O[C@@]2(C)Oc3c(C)c(O)c4c(O)c(c(/C=N/N5CCN(C)CC5)c(O)c4c3C2=O)NC(=O)/C(C)=C\\C=C\\[C@H](C)[C@H](O)[C@@H](C)[C@@H](O)[C@@H](C)[C@H](OC(C)=O)[C@@H]1C", "strain or isolate": "13011 (serotype 16)", "value": "0.8 µg/mL"}
{"smiles": "CCn1cc(C(=O)O)c(=O)c2cc(F)c(N3CCN(C)CC3)cc21", "strain or isolate": "CIPT 140310030", "value": "20 µg/mL"}
{"smiles": "C[C@@H]1CN(c2c(F)c(N)c3c(=O)c(C(=O)O)cn(C4CC4)c3c2F)C[C@H](C)N1", "strain or isolate": "7", "read by": "broth dilution", "value": "0.12 µg/mL"}
{"smiles": "NCC[C@H](O)C(=O)N[C@@H]1C[C@H](N)[C@@H](O[C@H]2O[C@H](CN)[C@@H](O)[C@H](O)[C@H]2O)[C@H](O)[C@H]1O[C@H]1O[C@H](CO)[C@@H](O)[C@H](N)[C@H]1O", "strain or isolate": "1257/HIV-", "value": "4 µg/mL"}
{"smiles": "NCC[C@H](O)C(=O)N[C@@H]1C[C@H](N)[C@@H](O[C@H]2O[C@H](CN)[C@@H](O)[C@H](O)[C@H]2O)[C@H](O)[C@H]1O[C@H]1O[C@H](CO)[C@@H](O)[C@H](N)[C@H]1O", "strain or isolate": "535/HIV+", "value": "1.25 µg/mL"}
{"smiles": "CC(C)(N)C1CCN(c2c(F)cc3c(=O)c(C(=O)O)cn(C4CC4)c3c2F)C1", "strain or isolate": "1172733", "value": "4 µg/mL"}
{"smiles": "NCC[C@H](O)C(=O)N[C@@H]1C[C@H](N)[C@@H](O[C@H]2O[C@H](CN)[C@@H](O)[C@H](O)[C@H]2O)[C@H](O)[C@H]1O[C@H]1O[C@H](CO)[C@@H](O)[C@H](N)[C@H]1O", "strain or isolate": "1069", "value": "2.5 µg/mL"}
{"smiles": "CC[C@H]1OC(=O)[C@H](C)[C@@H](O[C@H]2C[C@@](C)(OC)[C@@H](O)[C@H](C)O2)[C@H](C)[C@@H](O[C@@H]2O[C@H](C)C[C@H](N(C)C)[C@H]2O)[C@](C)(OC)C[C@@H](C)C(=O)[C@H](C)[C@@H](O)[C@]1(C)O", "strain or isolate": "3215", "value": "4 µg/mL"}
{"smiles": "CCNCC1CN(c2c(F)cc3c(=O)c(C(=O)O)cn(C4CC4)c3c2F)CC1CNCC", "strain or isolate": "PI12/39", "value": "32 µg/mL"}
{"smiles": "NC[C@@H]1O[C@H](O[C@H]2[C@@H](O)[C@H](O[C@@H]3[C@@H](O)[C@H](N)C[C@H](N)[C@H]3O[C@H]3O[C@H](CO)[C@@H](O)[C@H](O)[C@H]3N)O[C@@H]2CO)[C@H](N)[C@@H](O)[C@@H]1O", "strain or isolate": "TMC 1467", "value": "0.19 µg/mL"}
{"smiles": "CN(C)C1CCN(c2c(F)cc3c(=O)c(C(=O)O)cn(C4CC4)c3c2F)C1", "strain or isolate": "1172733", "value": "0.5 µg/mL"}
{"smiles": "NC[C@H]1O[C@H](O[C@H]2[C@H](O[C@@H]3O[C@H](CO)[C@@H](O)[C@H]3O)[C@@H](O)[C@H](N)C[C@@H]2N)[C@H](N)[C@@H](O)[C@@H]1O", "strain or isolate": "Isolate 64", "value": "100 µg/mL"}
{"smiles": "CCC1CCN(c2c(F)cc3c(=O)c(C(=O)O)cn(C4CC4)c3c2F)C1", "strain or isolate": "PI12/39", "value": "2 µg/mL"}
{"smiles": "CC1CN(c2cc3c(cc2F)c(=O)c(C(=O)O)cn3-c2ccc(F)cc2F)CCN1", "strain or isolate": "3213", "value": "4 µg/mL"}
{"smiles": "CC[C@@H](CO)NCCN[C@@H](CC)CO", "strain or isolate": "N-265 (HIV-)", "value": "8 µg/mL"}
{"smiles": "CC[C@H]1OC(=O)[C@H](C)[C@@H](O[C@H]2C[C@@](C)(OC)[C@@H](O)[C@H](C)O2)[C@H](C)[C@@H](O[C@@H]2O[C@H](C)C[C@H](N(C)C)[C@H]2O)[C@](C)(OC)C[C@@H](C)C(=O)[C@H](C)[C@@H](O)[C@]1(C)O", "strain or isolate": "1008", "value": "2 µg/mL"}
{"smiles": "NCC[C@H](O)C(=O)N[C@@H]1C[C@H](N)[C@@H](O[C@H]2O[C@H](CN)[C@@H](O)[C@H](O)[C@H]2O)[C@H](O)[C@H]1O[C@H]1O[C@H](CO)[C@@H](O)[C@H](N)[C@H]1O", "strain or isolate": "Isolate 49", "value": "50 µg/mL"}
{"smiles": "CC[C@@H](CO)NCCN[C@@H](CC)CO", "strain or isolate": "3216", "value": "16 µg/mL"}
{"smiles": "NC[C@@H]1O[C@H](O[C@H]2[C@@H](O)[C@H](O[C@@H]3[C@@H](O)[C@H](N)C[C@H](N)[C@H]3O[C@H]3O[C@H](CO)[C@@H](O)[C@H](O)[C@H]3N)O[C@@H]2CO)[C@H](N)[C@@H](O)[C@@H]1O", "strain or isolate": "549/HIV+", "value": "<1.56 µg/mL"}
{"smiles": "CCN(CC)CC1CCN(c2c(F)cc3c(=O)c(C(=O)O)cn(C4CC4)c3c2F)C1", "strain or isolate": "1988557", "value": "2 µg/mL"}
{"smiles": "NC[C@H]1O[C@H](O[C@H]2[C@H](O)[C@@H](O[C@H]3O[C@H](CO)[C@@H](O)[C@H](N)[C@H]3O)[C@H](N)C[C@@H]2N)[C@H](N)[C@@H](O)[C@@H]1O", "strain or isolate": "Isolate 93", "value": "3.13 µg/mL"}
{"smiles": "CC(C)N=c1cc2n(-c3ccc(Cl)cc3)c3ccccc3nc-2cc1Nc1ccc(Cl)cc1", "strain or isolate": "1423/HIV+", "value": "0.25 µg/mL"}
{"smiles": "CC[C@@H](CO)NCCN[C@@H](CC)CO", "strain or isolate": "908-5", "value": "1.9 µg/mL"}
{"smiles": "CC1COc2c(N3CCN(C)CC3)c(F)cc3c(=O)c(C(=O)O)cn1c23", "strain or isolate": "Isolate 861589", "value": "20 µg/mL"}
{"smiles": "NNC(=O)c1ccncc1", "strain or isolate": "13011 (serotype 16)", "value": "1.6 µg/mL"}
{"smiles": "CN[C@@H]1[C@H](O[C@H]2[C@H](O[C@H]3[C@H](O)[C@@H](O)[C@H](N=C(N)N)[C@@H](O)[C@@H]3N=C(N)N)O[C@@H](C)[C@]2(O)C=O)O[C@@H](CO)[C@H](O)[C@H]1O", "strain or isolate": "isolate C-17 19 26 34 44", "value": "≤12.5 µg/mL"}
{"smiles": "NCC1CN(c2c(F)cc3c(=O)c(C(=O)O)cn(C4CC4)c3c2F)CC1c1ccccc1", "strain or isolate": "PI12/39", "value": "8 µg/mL"}

Again, the opening 3 rows:

{"smiles": "CO[C@H]1/C=C/O[C@@]2(C)Oc3c(C)c(O)c4c(O)c(c(/C=N/N5CCN(C/C=C/c6ccccc6)CC5)c(O)c4c3C2=O)NC(=O)/C(C)=C\\C=C\\[C@H](C)[C@H](O)[C@@H](C)[C@@H](O)[C@@H](C)[C@H](OC(C)=O)[C@@H]1C", "strain or isolate": "CH5", "value": "0.06 µg/mL"}
{"smiles": "NC[C@H]1O[C@H](O[C@H]2[C@H](O)[C@@H](O[C@H]3O[C@H](CO)[C@@H](O)[C@H](N)[C@H]3O)[C@H](N)C[C@@H]2N)[C@H](O)[C@@H](O)[C@@H]1O", "strain or isolate": "N-978 (HIV+)", "value": "4 µg/mL"}
{"smiles": "CO[C@H]1/C=C/O[C@@]2(C)Oc3c(C)c(O)c4c(O)c(c(/C=N/N5CCN(C)CC5)c(O)c4c3C2=O)NC(=O)/C(C)=C\\C=C\\[C@H](C)[C@H](O)[C@@H](C)[C@@H](O)[C@@H](C)[C@H](OC(C)=O)[C@@H]1C", "strain or isolate": "13011 (serotype 16)", "value": "0.8 µg/mL"}